According to patent US20200170258A1:

Molecular target: T1, EF-Tu Receptor (EFR) of Arabidopsis thaliana (Arabidopsis thaliana), C0LGT6
T1 chain: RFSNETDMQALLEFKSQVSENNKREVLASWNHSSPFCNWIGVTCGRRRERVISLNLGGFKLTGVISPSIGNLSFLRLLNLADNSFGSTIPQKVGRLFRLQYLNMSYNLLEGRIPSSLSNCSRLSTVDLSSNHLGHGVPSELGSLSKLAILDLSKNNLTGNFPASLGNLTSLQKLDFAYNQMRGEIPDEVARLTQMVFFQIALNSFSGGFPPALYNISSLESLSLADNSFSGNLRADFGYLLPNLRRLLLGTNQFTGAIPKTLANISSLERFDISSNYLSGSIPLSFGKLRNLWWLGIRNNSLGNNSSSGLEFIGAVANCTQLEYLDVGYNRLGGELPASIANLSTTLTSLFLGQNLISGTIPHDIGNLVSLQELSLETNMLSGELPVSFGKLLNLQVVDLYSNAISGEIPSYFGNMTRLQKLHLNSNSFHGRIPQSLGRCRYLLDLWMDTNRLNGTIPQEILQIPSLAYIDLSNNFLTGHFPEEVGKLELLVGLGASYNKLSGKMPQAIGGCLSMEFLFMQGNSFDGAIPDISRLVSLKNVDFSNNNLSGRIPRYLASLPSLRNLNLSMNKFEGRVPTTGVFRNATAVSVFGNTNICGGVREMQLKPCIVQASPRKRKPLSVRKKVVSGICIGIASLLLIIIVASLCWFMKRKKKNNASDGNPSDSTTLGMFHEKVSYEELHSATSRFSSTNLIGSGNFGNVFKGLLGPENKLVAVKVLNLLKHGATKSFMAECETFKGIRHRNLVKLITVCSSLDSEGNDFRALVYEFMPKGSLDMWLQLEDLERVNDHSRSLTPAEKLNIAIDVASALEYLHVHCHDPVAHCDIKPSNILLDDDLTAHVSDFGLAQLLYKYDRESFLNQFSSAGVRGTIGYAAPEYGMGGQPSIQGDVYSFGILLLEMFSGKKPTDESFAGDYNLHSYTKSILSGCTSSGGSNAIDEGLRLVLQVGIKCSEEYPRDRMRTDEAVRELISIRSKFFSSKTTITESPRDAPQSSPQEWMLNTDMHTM
Assay: cell-based or functional assay

B1: N terminus of EF Tu (modified), Bacillus cereus, 18 amino acids (peptide)
peptide: AKAKFERSKPHVNIGTIG
modifications: not checked
For B1, the ROS activity in Arabidopsis leaf tissue, Average RLU value, 100 nM was 264000 RLU and the ROS activity in Arabidopsis leaf tissue, fold increase over mock treatment, 100 nM was 3.2 fold.

B2: N terminus of EF Tu (modified), Bacillus cereus, 26 amino acids (peptide)
peptide: AKAKFERSKPHVNIGTIGHVDHGKTT
modifications: not checked
With B2 the ROS activity in Arabidopsis leaf tissue, Average RLU value, 100 nM was 211000 RLU and the ROS activity in Arabidopsis leaf tissue, fold increase over mock treatment, 100 nM was 2.5 fold.
